# Measurements taken from patent US7125541.
# Biological target: human endoglin (human) (UniProt P17813)
# Assay: cell-based or functional assay
substance,measurement,value
TEC-11-dgA immunotoxin (from UniProt P02879 36-302),inhibition of protein synthesis in confluent HUVEC at 10-8 M,20%
same,inhibition of protein synthesis in quiescent HUVEC at 10-8 M,10%
same,inhibition of protein synthesis in subconfluent HUVEC at 10^-10 M,> 60%
